# Laboratory results taken from PubChem BioAssay AID834 (PCMD, 2007).
# This is a selection; strong and weak results do not stand in their true shares. The source made the active and inactive calls.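 How the source made its calls: active means inhibition above 20%; inactive means inhibition below 20%.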
# Assay: clotrimazole potentiators killing Candida biofilms, primary screen, with clotrimazole, Alamar Blue (AID 834);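 further: preformed 24 hr biofilms exposed to compound for 48 hr; 0% = biofilm without compound and 100% = blank killed by clotrimazole plus chlorhexidine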
# Details: C. albicans biofilm + clotrimazole, at 6 µM, active compounds read high
row,SMILES,inhibition
1,O=C(NCC1(N2CCOCC2)CCCCC1)c1cc(=O)[nH]c2ccccc12,inactive: -1.54%
2,N#CC1(Nc2ccccc2)CCN(CCc2ccccc2)CC1,inactive: -4.87%
3,O=C(OC1CN2CCC1CC2)C1c2ccccc2Oc2ccccc21 (centres undefined),inactive: 2.01%
4,O=C(NCC1(N2CCOCC2)CCCCC1)c1cc2ccccc2o1,inactive: 6.88%
5,CCC(CO)(C(=O)OC1CN2CCC1CC2)c1ccccc1 (centres undefined),inactive: 1.33%
6,CCOc1ncccc1C(=O)NCC1(N2CCOCC2)CCCCC1,inactive: 7.84%
7,Fc1ccccc1NC1CCN(Cc2ccccc2)CC1,inactive: 6.08%
8,c1ccc(CN2CCC(Nc3ccccc3)CC2)cc1,inactive: -1.37%
9,N/C(=N\O)c1c(N)no[n+]1[O-],inactive: 3.75%
